According to publication PMC11359509, “Anti-Skin Aging Potential, Antibacterial Activity, Inhibition of Single-Stranded DNA-Binding Protein, and Cytotoxic Effects of Acetone-Extracted Passiflora edulis (Tainung No. 1) Rind Extract on Oral”:
For at least one entry, the source does not settle the construct or the ends of the probe. The comparison behind a weaker result is the experiment's own reference, which may not be listed here.

Amino acid sequences for entries named in this document (tags omitted). A change or cut given only in a name is not applied to a line headed by its entry.
UniProt A6TGW7: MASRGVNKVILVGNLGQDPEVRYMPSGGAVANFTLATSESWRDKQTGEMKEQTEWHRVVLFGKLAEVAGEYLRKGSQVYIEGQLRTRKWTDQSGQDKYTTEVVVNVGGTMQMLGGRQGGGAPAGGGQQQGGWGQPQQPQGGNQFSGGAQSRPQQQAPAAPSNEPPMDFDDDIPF

Target: KpSSB (single-stranded DNA-binding protein) (Klebsiella pneumoniae) (UniProt A6TGW7)
Assay: EMSA
Details: 40 mM Tris-HCl pH 7.5, 50 mM NaCl, 37 °C, 60 min, 30 fmol/uL biotinylated ssDNA, 8% native PAGE in TBE, recombinant protein

Measured: binding result

TTTTTTTTTTTTTTTTTTTTTTTTTTTTTTTTTTT [dT35]
binds more weakly: 310 nM SSB + acetone rind extract of P. edulis 125-3000 ug/mL (extract IC50 313.2 +/- 21.0 ug/mL) | 310 nM SSB + ethanol rind extract (up to 3000 ug/mL), less potent than acetone extract | 310 nM SSB + methanol rind extract (up to 3000 ug/mL), less potent than acetone extract
